# Data from ChEMBL document CHEMBL4813984, “An original pronucleotide strategy for the simultaneous delivery of two bioactive drugs” (Eur J Med Chem, 2021).
# How the values were obtained:
# MT4 = test: Cytotoxicity against human MT4 cells assessed as reduction in cell viability incubated for 5 days by MTT assay; assay type: cell-based; details: mt4, 120 h
# [1] = tested on: Human immunodeficiency virus 1; test: Antiviral activity against HIV-1 infected in human CEM-SS cells assessed as reduction in viral multiplication by measuring decrease in reverse transcriptase activity incubated for 5 days
# CEM-TK(-) = test: Cytotoxicity against human CEM-TK(-) cells assessed as reduction in cell viability incubated for 5 days by MTT assay; assay type: cell-based; details: 120 h
# [2] = Selectivity index, ratio of CC50 for human MT4 cells to EC50 for antiviral activity against HIV-1 infected in human MT4 cells
# [3] = tested on: Human immunodeficiency virus 1; test: Antiviral activity against HIV-1 infected in human MT4 cells assessed as reduction in virus-indued cytopathogenicity incubated for 5 days by MTT assay
# CEM-SS = test: Cytotoxicity against human CEM-SS cells assessed as reduction in cell viability incubated for 5 days by MTT assay; assay type: cell-based; details: 120 h
# [4] = Selectivity index, ratio of CC50 for human CEM-SS cells to EC50 for antiviral activity against HIV-1 infected in human CEM-SS cells
smiles,measurement,setting,value
Cc1cn([C@H]2C[C@H](N=[N+]=[N-])[C@@H](COP(=O)(Nc3ccn([C@H]4CC[C@@H](CO)O4)c(=O)n3)OCCSC(=O)C(C)(C)C)O2)c(=O)[nH]c1=O (stereo partly drawn),CC50,MT4,> 500000 nM
same,EC50,[1],0.6 nM
same,CC50,CEM-TK(-),> 500000 nM
same,Ratio CC50/EC50,[2],> 76900
same,EC50,[3],6.5 nM
same,CC50,CEM-SS,350000 nM
same,Ratio CC50/EC50,[4],> 580000
CC(C)(C)C(=O)SCCOP(=O)(Nc1ccn([C@H]2CC[C@@H](CO)O2)c(=O)n1)OC[C@@H]1CC[C@H](n2cnc3c(N)ncnc32)O1 (stereo partly drawn),CC50,MT4,> 160000 nM
same,EC50,[1],40 nM
same,Ratio CC50/EC50,[2],> 203
same,EC50,[3],790 nM
same,CC50,CEM-SS,> 160000 nM
same,Ratio CC50/EC50,[4],> 4000
